Anti-infective test results gathered from many reports (values: NIAID ChemDB through PubChem).

a–b is a range or a potency band. Lines come from different laboratories, so protocols vary. Inhibition is in % at the dose shown (toxicity tests: loss of growth or viability). ICn is the concentration giving n% inhibition. An empty or dashed field is not shown. ECn is the concentration giving n% inhibition of infection, replication or growth. MIC50, MIC90 and the like: level of inhibition, or share of isolates inhibited.

Oc1ccccc1N=Cc1ccc(F)cc1 ; kind: culture ; species: Cryptococcus gattii ; strain: 1913 ER ; measure: MIC99 ; result: 8 µg/mL
O=C(O)c1sc(-c2ccccc2)cc1NC(=O)N1CCC2(CC1)C(=O)NCN2c1ccccc1 ; kind: target ; species: Hepatitis C virus ; target: NS3 ATPase ; measure: IC50 ; result: <5 µM
O=C(O)c1ccc(S(=O)(=O)[O-])cc1C(=O)O ; kind: culture ; species: Herpes simplex virus ; cell line: Human amnion AV3 cells ; read by: cytopathic effect ; measure: inhibition ; tested at: 50 µg/mL ; result: 10%
CCOC(=O)c1ccc(OCCC2CCN(c3ccc(C)nn3)CC2)cc1 ; kind: culture ; species: Rhinovirus ; strain: 209 (ICAM-1 receptor group 39) ; cell line: KB ; read by: neutral red ; measure: EC50 ; result: 0.001 µM
O=C(O)c1sc(-c2ccccc2)cc1N(Cc1ccccc1Cl)C(=O)C1CC1 ; kind: target ; species: Hepatitis C virus ; target: NS3 ATPase ; measure: IC50 ; result: >20 µM
COc1cc(Cc2sc3nc(N)nc(N)c3c2C)c(Br)c(OC)c1OC ; kind: target ; species: Cryptosporidium parvum ; strain: TYPE 2 ; target: Dihydrofolate reductase ; measure: IC50 ; result: 0.78 µM
O=C(Nc1ccc2c(O)c(N=Nc3ccc(N=Nc4ccc(S(=O)(=O)O)cc4)cc3)c(S(=O)(=O)O)cc2c1)c1ccccc1 ; kind: culture ; species: Rhinovirus ; cell line: Human amnion AV3 cells ; read by: cytopathic effect ; measure: inhibition ; tested at: 5 µg/mL ; result: 0%
N#Cc1ccccc1-c1ccc(CN(C(=O)c2ccc(Cl)cc2Cl)c2cc(-c3ccccc3)sc2C(=O)O)s1 ; kind: target ; species: Hepatitis C virus ; target: NS3 ATPase ; measure: IC50 ; result: <5 µM
COc1cccc(N2CCN(c3cncc(-c4ccc(C)cc4)n3)CC2)c1 ; kind: target ; species: Cytomegalovirus ; target: UL97 kinase ; measure: inhibition ; tested at: 1 µM ; result: <50%
O=C(Cn1c(-c2nccs2)nc2ccccc21)Nc1ccc2ccccc2c1 ; kind: host protein ; species: Human ; target: IMPDH2 ; read by: fluorescence / absorbance ; measure: inhibition ; tested at: 5 µM ; result: ≤10%
O=S(=O)([O-])c1ccc(NS(=O)(=O)c2ccccc2)c2c(S(=O)(=O)[O-])cccc12 ; kind: culture ; species: Herpes simplex virus ; cell line: Human amnion AV3 cells ; read by: cytopathic effect ; measure: inhibition ; tested at: 5 µg/mL ; result: 0%
COc1ccccc1N1CCN(c2cncc(-c3ccccc3C)n2)CC1 ; kind: target ; species: Cytomegalovirus ; target: UL97 kinase ; measure: inhibition ; tested at: 10 µM ; result: >15%
COCC(=O)N(Cc1cccc(Cl)c1)c1cc(-c2ccccc2)sc1C(=O)O ; kind: target ; species: Hepatitis C virus ; target: NS3 ATPase ; measure: IC50 ; result: >20 µM
CCOc1cccc2nc(N)nc(N)c12 ; kind: target ; species: Cryptosporidium parvum ; strain: TYPE 2 ; target: Dihydrofolate reductase ; measure: IC50 ; result: 0.35 µM
Cc1cc(CCCOc2c(C)cc(-c3noc(C(F)(F)F)n3)cc2C)on1 ; kind: culture ; species: Rhinovirus ; strain: Isolate 25 ; cell line: OHIO HELA-I ; read by: cytopathic effect / visual reading ; measure: EC50 ; result: 0.22 µg/mL
O=C(Nc1ccc2cc(S(=O)(=O)[O-])cc(S(=O)(=O)[O-])c2c1)c1ccccc1 ; kind: culture ; species: Herpes simplex virus ; cell line: Human conjunctiva cells ; read by: cytopathic effect ; measure: inhibition ; tested at: 50 µg/mL ; result: 10%
O=[N+]([O-])c1ccc(C=Nc2ccccc2O)cc1 ; kind: culture ; species: Cryptococcus neoformans ; strain: GM ; read by: broth dilution ; measure: MIC ; result: 11.6 µg/mL
Cc1ccccc1-c1cncc(N2CCN(c3cccc(Cl)c3)CC2)n1 ; kind: target ; species: Cytomegalovirus ; target: UL97 kinase ; measure: IC50 ; result: <100 µM
O=C(Cn1c(-c2cscn2)nc2ccccc21)Nc1ccc(Cl)cc1 ; kind: host protein ; species: Human ; target: IMPDH2 ; read by: fluorescence / absorbance ; measure: IC50 ; result: ≥20 µM
Nc1nc(N)c2nc(CC3CCCCC3)c(CC3CCCCC3)nc2n1 ; kind: target ; species: Cryptosporidium parvum ; strain: TYPE 2 ; target: Dihydrofolate reductase ; measure: IC50 ; result: >10 µM
Cc1ccnc2c1NC(=O)c1cccnc1N2C1CC1 ; kind: host protein ; species: Human ; target: DNA polymerase alpha ; measure: IC50 ; result: >24 µM
COc1c(-c2ccc3cc(NS(C)(=O)=O)ccc3c2)cc(-n2ccc(=O)[nH]c2=O)cc1C(C)(C)C ; kind: host protein ; target: Bovine terminal deoxynucleotidyl transferase ; measure: IC50 ; result: >100 µM
Nc1nc(N)c2c(n1)CCC(Cc1cccc(OC(F)(F)F)c1)C2 ; kind: target ; species: Cryptosporidium parvum ; strain: TYPE 1 ; target: Dihydrofolate reductase ; measure: IC50 ; result: 0.4 µM
Oc1ccccc1C=Nc1ccccc1O ; kind: culture ; species: Cryptococcus neoformans ; strain: 96806 ; measure: MIC99 ; result: 8 µg/mL
Cc1ccc(N2CCN(c3cncc(-c4ccc5ccccc5c4)n3)CC2)c(C)c1 ; kind: target ; species: Cytomegalovirus ; target: UL97 kinase ; measure: IC50 ; result: <100 µM
CCC(CC)[C@H](NC(C)=O)[C@@H]1[C@H](O)[C@@H](C(=O)O)C[C@H]1N=C(N)N ; kind: culture ; species: Influenza A virus ; strain: Influenza A/Sydney/05/97 (H3N2) ; cell line: MDCK ; measure: EC50 ; result: 0.19 µM
Nc1ccc(S(=O)(=O)O)cc1 ; kind: culture ; species: Adenovirus ; strain: TYPE 3 ; cell line: Human embryonic lung cells ; read by: cytopathic effect ; measure: inhibition ; tested at: 50 µg/mL ; result: 0%
COc1cc(NCc2ccc3nc(N)nc(N)c3c2Cl)c(Br)c(OC)c1OC ; kind: target ; species: Cryptosporidium parvum ; strain: TYPE 2 ; target: Dihydrofolate reductase ; measure: IC50 ; result: >10 µM
O=C1C(c2[nH]c3ccc(S(=O)(=O)O)cc3c2O)=Nc2ccc(S(=O)(=O)O)cc21 ; kind: culture ; species: Rhinovirus ; cell line: Human embryonic lung cells ; read by: cytopathic effect ; measure: inhibition ; tested at: 5 µg/mL ; result: 0%
C=CCc1ccc(OC)c(OC)c1 ; kind: culture ; species: Candida tropicalis ; strain: 3167 ; read by: turbidity ; measure: MIC90 ; result: 345 µg/mL
CCOC(=O)c1c(C)nc(NCCCCNc2ccnc3cc(Cl)ccc23)nc1-c1ccccc1 ; kind: culture ; species: Cryptococcus gattii ; strain: 1913 ER ; measure: MIC99 ; result: 8 µg/mL
O=C(Cn1c(-c2nccs2)nc2ccccc21)Nc1ccc(Cl)c(Cl)c1 ; kind: host protein ; species: Human ; target: IMPDH2 ; read by: fluorescence / absorbance ; measure: IC50 ; result: ≥8 µM
COc1ccc(N2CCN(c3cncc(-c4ccccc4C)n3)CC2)cc1OC ; kind: target ; species: Cytomegalovirus ; target: UL97 kinase ; measure: IC50 ; result: <100 µM
Nc1nc(N)c2nc(CN3c4ccccc4Cc4ccccc43)cnc2n1 ; kind: target ; species: Cryptosporidium parvum ; strain: TYPE 2 ; target: Dihydrofolate reductase ; measure: IC50 ; result: 1.7 µM
Fc1ccc(N2CCCCC2)c(NC(=S)c2ccncc2)c1 ; kind: host protein ; target: cKit (V560G) ; read by: kinase activity ; measure: inhibition ; tested at: 10 µM ; result: -1%
Cc1ccccc1S(=O)(=O)Nc1cc(-c2ccc(Cl)cc2Cl)sc1C(=O)O ; kind: target ; species: Hepatitis C virus ; target: NS3 ATPase ; measure: IC50 ; result: 5–20 µM
COc1cc(CCc2cccc3nc(N)nc(N)c23)cc(OC)c1OC ; kind: target ; species: Cryptosporidium parvum ; strain: TYPE 2 ; target: Dihydrofolate reductase ; measure: IC50 ; result: >10 µM

A second listing of 2 rows from above:

| SMILES | kind | species | strain | cell line | target | read by | measure | tested at | result |
|---|---|---|---|---|---|---|---|---|---|
| O=C(Cn1c(-c2cscn2)nc2ccccc21)Nc1ccc(Cl)cc1 | host protein | Human |  |  | IMPDH2 | fluorescence / absorbance | IC50 |  | ≥20 µM |
| O=S(=O)([O-])c1ccc(NS(=O)(=O)c2ccccc2)c2c(S(=O)(=O)[O-])cccc12 | culture | Herpes simplex virus |  | Human amnion AV3 cells |  | cytopathic effect | inhibition | 5 µg/mL | 0% |